# Tested on: CPSF3-OE T. cruzi intracellular amastigotes
# Type: cell-based, Trypanosoma cruzi
# Conditions: T. cruzi CPSF3-OE vs WT
# Experimental: The in vitro anti-T. cruzi amastiogote activity assay was performed and optimized based on the protocol described previously. The change in tdTomato fluorescence intensity was determined as a measurement of growth over 72 hours of culture. For assaying drug effects on extracellular amastigotes, trypomastigotes were collected from infected Vero cell cultures and converted in acidic media as previously described. Amastigotes (50,000/well) were incubated with 2-fold serial dilutions of compounds for 48 hours. The ATP production was used as an indication of growth in this case, and was measured by ATPlite Luminescence ATP Detection Assay System (PerkinElmer). Both fluorescence and luminescence were read using a BioTek Synergy Hybrid Multi-Mode reader equipped with the software Gene5 v 2.0 (BioTek). […]
# To confirm the CPSF overexpression in the selected transfectants, RNA was extracted as previously described and converted to cDNA using SuperScript Reverse Transcriptase (Invitrogen). Quantitative PCR reactions were performed in triplicate on the C1000 Touch Bio-Rad CFX96 real-time PCR detection system for CPSF using primer sets CPSF-1 (5'-[…]-3' and 5'-[…]-3') and CPSF-2 (5'-[…]-3' and 5'-[…]-3') in both control and CPSF over-expressing parasites, and the expression level was normalized to tubulin which was amplified using primers: ‘[…]’ and ‘[…]’.
compound,measurement,value
Cc1c(C(=O)N[C@H](C(=O)OCC2CCOCC2)C(C)C)ccc2c1B(O)OC2 [AN15368],increase in resistance on overexpression of CPSF3,3-5 fold
